Anti-infective test results gathered from many reports (values: NIAID ChemDB through PubChem).

All rows: tests in culture; agent: HIV-1; measure: fold resistance

a–b is a range or a potency band. Neighbouring rows are from separate reports. Fold resistance has wild type as its base.

C=CCOCn1c(C(=C)c2cc(C)cc(C)c2)c(CC)c(=O)[nH]c1=O ; method: cytopathic effect / MTT ; strain or isolate: IIIB ; cells: MT-4 ; changes: RT-Y181C ; result: 3330
CC(C)=CCOc1cc(NC(=S)c2ccsc2C)ccc1Cl ; method: p24 ; strain or isolate: NL4-3 ; cells: CEM + CEM-SS ; changes: RT-A98G ; result: 1.5
CCCCCCCCCCCCCCCCCCOCCOP(=O)(O)CO[C@H](CO)Cn1cnc2c(N)ncnc21 ; method: p24 ; cells: MT-2 ; changes: RT-K65R ; result: 7.5
CCN1C(=O)c2c(O)c(=O)c(C(=O)NCc3ccc(F)cc3F)cn2[C@H]2CCOC[C@H]21 ; method: luminescence ; cells: MT-2 ; changes: G140S/Q148R ; result: 2.9
COC(=O)[C@H](C)NP(=O)(OC[C@@H]1C=C[C@H](n2cc(C)c(=O)[nH]c2=O)O1)Oc1ccccc1Br ; method: p24 ; strain or isolate: RTMDR ; cells: PBMC ; changes: RT M41L L74V T215Y V106N ; result: 261.5
C=C(C)[C@@H]1CC[C@]2(C(=O)NCCCCCCCC(=O)N[C@@H](CC(C)C)[C@@H](O)CC(=O)O)CC[C@]3(C)[C@H](CC[C@@H]4[C@@]5(C)CC[C@H](O)C(C)(C)[C@@H]5CC[C@]43C)[C@@H]12 ; method: syncytia ; strain or isolate: LAI-R(GP41-R22A I84S) ; cells: HeLa P4 + HeLa ; changes: R22A I84S ; result: >10
CCOCn1c(Cc2ccccc2)c(C(C)C)c(=O)[nH]c1=O ; method: cytopathic effect / MTT ; strain or isolate: IIIB ; cells: MT-4 ; changes: RT-Y181C ; result: 2200
C[C@@H]1CCO[C@H]2Cn3cc(C(=O)NCc4ccc(F)cc4F)c(=O)c(O)c3C(=O)N12 ; method: luciferase / luminescence ; cells: TZM-bl ; changes: L74M/V75I ; result: 0.5
CCN1C(=O)c2c(O)c(=O)c(C(=O)NCc3c(F)cc(F)cc3F)cn2[C@H]2COC[C@H]21 ; method: luminescence ; cells: MT-2 ; changes: G140S/Q148R ; result: 5.9
CC1(C)Oc2ccc3ccc(=O)oc3c2[C@@H](OC(=O)C23CCC(C)(C(=O)O2)C3(C)C)[C@H]1OC(=O)C12CCC(C)(C(=O)O1)C2(C)C ; method: p24 ; strain or isolate: NL4-3 ; cells: MT-4 ; changes: RT-E138K ; result: 100
Cc1cc(Cl)cc(C(=O)c2cc(Cl)ccc2OCC(=O)Nc2ccc(S(N)(=O)=O)cc2C)c1 ; method: β-galactosidase ; strain or isolate: HXB2 ; cells: HeLa + HELA CD4+ ; changes: RT-V106I Y181C ; result: ~1
CCN1C(=O)c2c(O)c(=O)c(C(=O)NCc3ccc(F)c(Cl)c3F)cn2[C@H]2CCO[C@H]21 ; method: luminescence ; cells: MT-2 ; changes: E92Q/N155H ; result: 2.2
C#CCOCn1c(C(=C)c2cc(C)cc(C)c2)c(CC)c(=O)[nH]c1=O ; method: cytopathic effect / MTT ; strain or isolate: IIIB ; cells: MT-4 ; changes: RT-K103N Y181C ; result: 767
C=C(C)[C@@H]1CC[C@]2(C(=O)NCCCCCCCC(=O)N[C@@H](CC(C)C)[C@@H](O)CC(=O)O)CC[C@]3(C)[C@H](CC[C@@H]4[C@@]5(C)CC[C@H](O)C(C)(C)[C@@H]5CC[C@]43C)[C@@H]12 ; method: syncytia ; strain or isolate: LAI ; cells: HeLa P4 + HeLa ; changes: GP41-I69V ; result: ~1
C=C(c1cc(C)cc(C)c1)c1c(CC)c(=O)[nH]c(=O)n1COCC ; method: cytopathic effect / MTT ; strain or isolate: IIIB ; cells: MT-4 ; changes: RT-Y181C ; result: 485.7
CCCCCCCCCCCCCCCCOCCCOP(=O)(O)CO[C@H](CO)Cn1cnc2c(N)ncnc21 ; method: p24 ; cells: MT-2 ; changes: RT-K103N ; result: 2.86
COC(=O)[C@H](C)NP(=O)(OC[C@@H]1C=C[C@H](n2cc(C)c(=O)[nH]c2=O)O1)Oc1c(OC)cccc1OC ; method: p24 ; strain or isolate: A17 ; cells: PBMC ; changes: RT-Y181C ; result: 22.8
Cc1cc2[nH]cnc2cc1NC(=O)COc1ccc(Cl)cc1C(=O)c1cc(F)cc(C(F)(F)F)c1 ; method: β-galactosidase ; strain or isolate: HXB2 ; cells: HeLa + HELA CD4+ ; changes: RT-Y188C ; result: ~1
CCCCCCCCCC[N+](C)(C)CCCNCc1c(O)cc2c(c1O)-c1cc(ccc1O)[C@H]1NC(=O)[C@@H]3NC(=O)C4NC(=O)[C@@H](Cc5ccc(c(Cl)c5)Oc5cc3cc(c5O)Oc3ccc(cc3Cl)[C@@H](O)[C@H](NC1=O)C(=O)N[C@@H]2C(=O)O)NC(=O)[C@H](N)c1ccc(O)c(c1)Oc1cc(O)cc4c1 ; method: syncytia ; cells: CEM ; changes: RT-Y181C ; result: 3
CN(C)C1=C(C#N)/C(=C2/C(C#N)=C(N(C)C)N(c3ccc([N+](=O)[O-])cc3)c3c2n(C)c2ccccc32)c2c(c3ccccc3n2C)N1c1ccc([N+](=O)[O-])cc1 ; method: cytopathic effect / XTT ; strain or isolate: N119 nevirapine-resistant (RT Y181C) ; cells: CEM + CEM-SS ; changes: RT-Y181C ; result: 1.23–12
CCc1cc(C#N)cc(C(=O)c2cc(Cl)ccc2OCC(=O)Nc2ccc(S(N)(=O)=O)cc2C)c1 ; method: β-galactosidase ; strain or isolate: HXB2 ; cells: HeLa + HELA CD4+ ; changes: RT-K103N ; result: ~1
CCc1c(OCC2CCC2)c2cc(F)ccc2[nH]c1=O ; method: β-galactosidase ; strain or isolate: NNRTI-resistant (RT K103N G190A) ; cells: HeLa + HeLa-MAGI ; changes: RT-K103N G190A ; result: 12.36
Cc1cc(C#N)cc(C(=O)c2cc(Cl)ccc2OCC(=O)Nc2cnc(S(N)(=O)=O)cc2C)c1 ; method: β-galactosidase ; strain or isolate: HXB2 ; cells: HeLa + HELA CD4+ ; changes: RT-L100I ; result: ~1
Cc1c(OCC2CCC2)c2cc(F)ccc2[nH]c1=O ; method: β-galactosidase ; strain or isolate: NNRTI-resistant (RT K103N V108I) ; cells: HeLa + HeLa-MAGI ; changes: RT-K103N V108I ; result: >3.28
CC(C)OC(=O)c1cc(NC(=S)OC(C)C)ccc1Cl ; method: syncytia ; strain or isolate: IIIB ; cells: CEM ; changes: RT-V106A ; result: 71
FC(F)(Sc1ncccn1)c1nc2ccccc2o1 ; strain or isolate: ddI-resistant ; changes: RT-L74V ; result: >3.18
COC(=O)[C@H](C)NP(=O)(OC[C@@H]1C=C[C@H](n2cc(C)c(=O)[nH]c2=O)O1)Oc1ccc(Cl)cc1 ; method: p24 ; strain or isolate: A17 ; cells: PBMC ; changes: RT-Y181C ; result: 79
CC(C)=CCOc1cc(NC(=S)c2ccoc2C)ccc1Cl ; method: syncytia ; strain or isolate: IIIB ; cells: CEM ; changes: RT-E138K ; result: 1.7

3 of the rows above, restated:

SMILES | method | strain or isolate | cells | changes | result
C=C(C)[C@@H]1CC[C@]2(C(=O)NCCCCCCCC(=O)N[C@@H](CC(C)C)[C@@H](O)CC(=O)O)CC[C@]3(C)[C@H](CC[C@@H]4[C@@]5(C)CC[C@H](O)C(C)(C)[C@@H]5CC[C@]43C)[C@@H]12 | syncytia | LAI-R(GP41-R22A I84S) | HeLa P4 + HeLa | R22A I84S | >10
CCc1cc(C#N)cc(C(=O)c2cc(Cl)ccc2OCC(=O)Nc2ccc(S(N)(=O)=O)cc2C)c1 | β-galactosidase | HXB2 | HeLa + HELA CD4+ | RT-K103N | ~1
Cc1cc(Cl)cc(C(=O)c2cc(Cl)ccc2OCC(=O)Nc2ccc(S(N)(=O)=O)cc2C)c1 | β-galactosidase | HXB2 | HeLa + HELA CD4+ | RT-V106I Y181C | ~1